Measurements reported in patent publication US10231463B2, “Food mass suitable for microwaving” (Chemische Fabrik Budenheim KG, priority 2013, dated 2019).

Assay: Thawing and baking trials with yeast-raised wheat frozen doughs in a microwave oven
Conditions: 2 parts by weight additive; deep-frozen 200 g dough piece; 600 watts, 120 seconds; 2 minutes standing time; infrared sensor
Experimental: Dough Composition (Basic Recipe):
In addition 2 parts by weight of microwave absorber were added to the basic recipe.
• Mixing and kneading time: 3+2 minutes (the latter in a Stephan mixer) • Dough standing time: 20 minutes • Dough piece weight: 200 g • Cooking time of the dough pieces: 20 minutes • Freezing time: about 4 hours • Deep freeze storage time: about 2 days Thawing and Baking Trials:
The deep-frozen dough pieces were exposed to microwave radiation in a microwave oven from Panasonic (model: NN-GD560M—inverter microwave) for a predetermined period of 120 seconds and with a predetermined microwave power of 600 watts (according to the device indication). After 2 minutes of standing time the temperature of the crust and the crumb was measured by means of an infrared temperature sensor at various measurement points on the dough piece.
Measurement value 1 (M1)=average crust temperature outside
Measurement value 2 (M2)=average crumb temperature in the interior of the dough piece.

Question: For “Ammonium molybdate [AmMD(V), reference compound]”, which “M1 (average crust temperature outside)” value is on record?
Answer: 75.6 °C

Question: And the “M2 (average crumb temperature in the interior of the dough piece)” value?
Answer: 51.4 °C

Question: With Magnesium metaphosphate [MMP] as the substance, how does the “M1 (average crust temperature outside)” value read?
Answer: 76.9 °C

Question: What about the “M2 (average crumb temperature in the interior of the dough piece)” value of the same substance?
Answer: 38.5 °C

Question: Which “M1 (average crust temperature outside)” value does the source give for “Sodium aluminium phosphate 1:3:8 NaH14Al3(PO4)8 [SALP 1]” here?
Answer: 74.8 °C

Question: What about the “M2 (average crumb temperature in the interior of the dough piece)” value of the same substance?
Answer: 45.2 °C

Question: Which “M1 (average crust temperature outside)” value does the source give for “Sodium aluminium phosphate 3:2:8 Na3H15Al2*PO4)8 [SALP 2]” here?
Answer: 78.3 °C

Question: And the “M2 (average crumb temperature in the interior of the dough piece)” value?
Answer: 57.8 °C
